Compound potency records, mixed from different reports. Data source: NIAID ChemDB in PubChem.

All rows: tests in culture; species: Mycobacterium tuberculosis

Fold resistance: result on the changed form divided by that on wild type. Percent inhibition refers to the dose given; in toxicity tests it is the harm to the cells. MIC bound comes from a single tested concentration. Lines come from different laboratories, so protocols vary. Blank or dashed fields: not listed here. Two numbers with a dash give a range or band. ECn: concentration that inhibits the pathogen or its effect by n%. MIC50, MIC90 and the like: level of inhibition, or share of isolates inhibited.

structure,setting,changes,dose,strain,read by,endpoint,cells,value
CN(C)CC=C(c1ccc(Br)cc1)c1ccc(-c2ccc(Br)cc2)cc1,,,,ALI 909,,MIC,,17 µg/mL
O=S(=O)(Cc1cn(-c2ccc(Cl)cc2Cl)nn1)C1c2ccccc2-c2ccccc21,,,,Specimen 192,broth dilution,MIC99,,>219 µM
CN(C)C/C=C(\c1ccc(O)cc1)c1ccc(-c2ccccc2)cc1,,,,H37Rv,,MIC,,6 µg/mL
CCCCCCCCCN1C(=O)c2cc(Cl)nnc2Oc2ccc(Cl)cc21,,,,H37Rv,BACTEC,EC50,,<12.5 µg/mL
ClCC[N+]12CC[N+](CCCl)(CC1)C2.O=S(=O)([O-])[O-],,,,H37Rv,BACTEC,MIC bound,,>12.5 µg/mL
CCCCCN1C(=O)c2cc(Cl)nnc2Oc2ccccc21,,,12.5 µg/mL,H37Rv,BACTEC,inhibition,,32%
COc1ccc(N=Nc2c(O)c3cccc([N+](=O)[O-])c3[nH]c2=O)c(C)c1,,,,H37Rv,resazurin,MIC,,>6.25 µg/mL
C=CCn1c(-c2cc3ccccc3oc2=O)cs/c1=N\N=C\c1cc(Br)ccc1O,,,,H37Rv,,EC50,,<12.5 µg/mL
CCc1nc2ccccc2n1CCCNc1ccc(C)c(C)c1,,WT,,H37Rv,turbidity / fluorescence,MIC90,,3.1 µM
Cc1cc(=O)oc2c(C)c3oc(CBr)cc3cc12,,,,H37Rv,resazurin,MIC bound,,>6.25 µg/mL
CC1COc2c(N3CCN(C)CC3)c(F)cc3c(=O)c(C(=O)O)cn1c23,,,,STR-resistant (ATCC 35820),broth dilution,MIC,,0.5 µg/mL
CO[C@H]1/C=C/O[C@@]2(C)Oc3c(C)c(O)c4c(O)c(c(/C=N/N5CCN(C)CC5)c(O)c4c3C2=O)NC(=O)/C(C)=C\C=C\[C@H](C)[C@H](O)[C@@H](C)[C@@H](O)[C@@H](C)[C@H](OC(C)=O)[C@@H]1C,,,,13268,,MIC,,0.09 µg/mL
COc1ccc(C=CC(=O)c2sc(Nc3ccc([N+](=O)[O-])cc3)nc2C)cc1,,,,H37Rv,resazurin,MIC bound,,>6.25 µg/mL
CO[C@H]1/C=C/O[C@@]2(C)Oc3c(C)c(O)c4c(O)c(c5c(c4c3C2=O)NC2(CCN(CC(C)C)CC2)N=5)=NC(=O)/C(C)=C\C=C\[C@H](C)[C@H](O)[C@@H](C)[C@@H](O)[C@@H](C)[C@H](OC(C)=O)[C@@H]1C,,,,H37Rv,,MBC,,0.062 µg/mL
CN(C)C/C=C(/c1ccccc1)c1ccc(-c2ccc(Br)cc2)cc1,,,,ALI 536,,MIC,,≤5 µg/mL
O=[N+]([O-])c1cn2c(n1)OC[C@@H](OCc1ccc(/C=C/c3ccc(C(F)(F)F)cc3)cc1)C2,,,,,low oxygen,MIC90,,15 µM
O=c1[nH]c2c([N+](=O)[O-])cccc2c(O)c1N=Nc1ccc(F)cc1,,,6.25 µg/mL,H37Rv,resazurin,inhibition,,46%
NC(=O)c1cnccn1,,,,Isolate 98-36,,MIC,,900 µg/mL
CC(=O)c1cc(N)c2nc(C34CC5CC(CC(C5)C3)C4)ccc2c1,,,,H37Rv,,MIC,,>6.25 µg/mL
O=[N+]([O-])c1cn2c(n1)OC[C@@H](OCc1ccc(C#Cc3ccc(C(F)(F)F)nc3)nc1)C2,,,,,low oxygen,MIC90,,4.7 µM
Cc1ccc2c(c1)Oc1nnc(Cl)cc1C(=O)N2CCCC1CCCCC1,,,,H37Rv,BACTEC,EC50,,<12.5 µg/mL
CC(=O)NCC1OC2COC(c3ccccc3)OC2C2N=C(c3ccccc3)OC12,,,,H37Rv,BACTEC,MIC bound,,>12.5 µg/mL
CC1COc2c(N3CCN(C)CC3)c(F)cc3c(=O)c(C(=O)O)cn1c23,,,,90-0145 (drug-susceptible),,MIC,,0.5 µg/mL
CCCCn1c(-c2cc3ccccc3oc2=O)cs/c1=N\N=C\c1ccc(Cl)cc1,,,12.5 µg/mL,H37Rv,,inhibition,,81%
CCCCOc1ccc2nccc(NN)c2c1,inside macrophages,,,H37Rv,,MIC,,0.78 µg/mL
CCc1nc2ccc(C)cc2n1CCCNc1ccc(C)cc1C,,,,H37Rv,turbidity / fluorescence,MIC99,,0.07 µM
CN(C)C/C=C(/c1ccc(Br)cc1)c1ccc(-c2ccc(Br)cc2)cc1,,,,H37Ra,,MIC,,34 µg/mL
NNC(=O)c1nnn(Cc2ccccc2)c1N,,,,H37Rv,BACTEC,MIC bound,,>12.5 µg/mL
CCc1nc2ccccc2n1CCCCNc1ccc(-c2ccccn2)cc1,,WT,,H37Rv,turbidity / fluorescence,MIC90,,0.55 µM
CC(=O)c1ccc(N=Nc2c(O)c3cc(Cl)ccc3[nH]c2=O)cc1,,,,H37Rv,resazurin,MIC,,>6.25 µg/mL
COc1ccc2nc(-c3ccccc3)cc(N/N=C/c3ccc([N+](=O)[O-])o3)c2c1,,,12.5 µg/mL,H37Rv,,inhibition,VERO,72%
CCc1nc2ccc(C)cc2n1CCCNc1ccc(Br)c(C)c1,,QcrB M342T,,H37Rv,turbidity / fluorescence,MIC90,,>100 µM
O=[N+]([O-])c1cn2c(n1)OC[C@@H](OCc1cccc(C#Cc3ccc(C(F)(F)F)cc3)c1)C2,,,,,low oxygen,MIC90,,2 µM
NC(=O)c1cnccn1,,,,Isolate K10451,,MIC,,>500 µg/mL
O=c1[nH]c2c([N+](=O)[O-])cccc2c(O)c1N=Nc1cccc([N+](=O)[O-])c1,,,,H37Rv,resazurin,MIC,,<6.25 µg/mL
COc1ccccc1Nc1nc(-c2ccc([N+](=O)[O-])o2)cs1,,,,H37Rv,BACTEC,MIC,,≥12.5 µg/mL
CCc1nc2ccccc2n1CCCCOc1ccccc1Cl,,Rv1339 V90M,,H37Rv,turbidity / fluorescence,fold resistance,,0.8
COc1ccc2c(c1OC)C1=NCCc3cc4c(cc3C1(OC)C2=O)OCO4,,,,H37Rv,BACTEC,MIC bound,,>12.5 µg/mL
CCCCCCCCCN1C(=O)c2cc(Cl)nnc2Oc2cc(C)ccc21,,,12.5 µg/mL,H37Rv,BACTEC,inhibition,,0%
COC(=O)[C@@H]1[C@H](O)[C@H](C)C(O)[C@H](C)/C=C\C=C(/C)C(=O)Nc2c(C)c(OC(C)=O)c3c(c2O)C(=O)C(C)=C2OCOC(=C23)/C(C)=C/[C@@](C)(O)[C@H](O)[C@@H](C)[C@H]1OC(C)=O,,,,H37Rv,BACTEC,MIC bound,,≤12.5 µg/mL
N[C@@H]1CONC1=O,,,,H37Rv,,MIC,,25 µg/mL
CC(=O)c1cc(N)c2ncccc2c1C1CCCC1,,,,H37Rv,,MIC,,>6.25 µg/mL
O=c1[nH]c2cc([N+](=O)[O-])ccc2c(O)c1N=Nc1ccc(F)cc1,,,6.25 µg/mL,H37Rv,resazurin,inhibition,,100%
Cc1nc2c(=O)[nH][nH]c(=O)c2s1,,,12.5 µg/mL,H37Rv,BACTEC,inhibition,,0%
CC(C)N=c1cc2n(-c3ccc(Cl)cc3)c3ccccc3nc-2cc1Nc1ccc(Cl)cc1,,,,90-0241 (drug-susceptible),,MIC,,0.4 µg/mL
CCCCOc1ccc2nc(C)cc(NN)c2c1,,,,H37Rv,,MIC,VERO,6.25 µg/mL
C[C@@H]1CN(c2c(F)c(N)c3c(=O)c(C(=O)O)cn(C4CC4)c3c2F)C[C@H](C)N1,,,,90-0241 (drug-susceptible),,MIC,,0.1 µg/mL
Cc1ccc(S(=O)(=O)N2CCNCCN(S(=O)(=O)c3ccc(C)cc3)CCN(S(=O)(=O)c3ccc(C)cc3)CC2)cc1,,,6.25 µg/mL,H37Rv,resazurin,inhibition,,-14%
Fc1ccc(-n2cc(CSC3c4ccccc4-c4ccccc43)nn2)cc1Cl,,,,Specimen 192,broth dilution,MIC99,,246 µM
O=C([C@@H](O)CO)N1CC=C(c2c(F)cc(N3C[C@H](COc4ccon4)OC3=O)cc2F)CC1,,T460C Cys154Arg,,AZD5847-resistant 8.9,,MIC,,16 µg/mL
O=[N+]([O-])c1cn2c(n1)OC[C@@H](OCc1ccc(N3CCN(c4ccc(C(F)(F)F)cn4)CC3)nc1)C2,,,,,low oxygen,MIC90,,2.5 µM
COc1ccc(N=Nc2c(O)c3c(Cl)ccc(Cl)c3[nH]c2=O)c(C)c1,,,6.25 µg/mL,H37Rv,resazurin,inhibition,,40%
NC[C@H]1O[C@H](O[C@H]2[C@H](O)[C@@H](O[C@H]3O[C@H](CO)[C@@H](O)[C@H](N)[C@H]3O)[C@H](N)C[C@@H]2N)[C@H](O)[C@@H](O)[C@@H]1O,,,,90-0201 (drug-susceptible),,MIC,,2 µg/mL
O=[N+]([O-])c1cn2c(n1)OC[C@@H](OCc1ccnc(N3CCN(c4ccc(C(F)(F)F)cn4)CC3)c1)C2,,,,,resazurin,MIC90,,0.36 µM
CCOC(=O)Cn1c(C(F)(F)F)nc2nc(Cl)c(Cl)nc21,,,6.25 µg/mL,H37Rv,BACTEC,inhibition,,51%
CCOc1cc(/C=N/N=c2\scc(-c3cc4ccccc4oc3=O)n2C2CCCCC2)ccc1O,,,,H37Rv,,MIC,,6.25 µg/mL
CN(C)CC=C(c1ccccc1)c1ccc(-c2ccc(Br)cc2)cc1,,,,ALI 452,,MIC,,≤5 µg/mL
CO[C@H]1/C=C/O[C@@]2(C)Oc3c(C)c(O)c4c(O)c(c(/C=N/N5CCN(C6CCCC6)CC5)c(O)c4c3C2=O)NC(=O)/C(C)=C\C=C\[C@H](C)[C@H](O)[C@@H](C)[C@@H](O)[C@@H](C)[C@H](O)[C@@H]1C,,,,Atencio,,MIC,,0.06 µg/mL
CCCN1CCN(c2ccc([N+](=O)[O-])c3no[n+]([O-])c23)CC1,,,,H37Rv,,MIC,VERO,3.13 µg/mL
CCCCCCCOc1c(C(C)=O)cc([N+](=O)[O-])c2nccc(CC)c12,,,,Rifampicin-resistant,,MIC,,6.25 µg/mL
CC1COc2c(N3CCN(C(N)=NC#N)CC3)c(F)cc3c(=O)c(C(=O)O)cn1c23,,,,ATCC 35820,broth dilution,MIC,,0.312 µg/mL
COC(=O)C(NC(=O)c1c2nc3c(C(=O)NC(C(=O)OC)C(C)O)ccc(C)c3oc-2c(C)c(=O)c1N)C(C)O,,,12.5 µg/mL,H37Rv,BACTEC,inhibition,,0%
C[C@H]1COc2c(N3CCN(C)CC3)c(F)cc3c(=O)c(C(=O)O)cn1c23,,,,001-012 (drug-resistant),,MIC,,0.75 µg/mL
O=C(O)CCCCC1CCSS1,,,12.5 µg/mL,H37Rv,BACTEC,inhibition,,0%
FC(F)(F)c1ccc(-n2cc(CSC3c4ccccc4-c4ccccc43)nn2)cc1,,,,Specimen 192,broth dilution,MIC99,,>236 µM
O=C(CNC(=O)Nc1n[nH]c(=S)s1)N/N=C/c1ccccc1O,,,12.5 µg/mL,H37Rv,BACTEC,inhibition,,-9%
CCCCCCOc1c(C(C)=O)cc([N+](=O)[O-])c2nccc(CC)c12,,,6.25 µg/mL,H37Rv,,inhibition,,76%
Cc1nn(C(=O)c2ccccc2O)c2c1C(c1ccco1)SC(N)=N2,,,,H37Rv,BACTEC,MIC bound,,>12.5 µg/mL
COc1ccc2nc(-c3ccccc3)cc(NN)c2c1,,,,H37Rv,,MIC,VERO,6.25 µg/mL
NNC(=O)c1ccncc1,,,,90-0216 (drug-susceptible),,MIC,,0.04 µg/mL
NNC(=O)c1ccncc1,,,,PR146,,MIC,,10 µg/mL
CCOc1cc(/C=N/N=c2\scc(-c3cc4cc(Br)ccc4oc3=O)n2CC)ccc1O,,,,H37Rv,,EC50,,<12.5 µg/mL
CCc1nc2ccccc2n1CCCCOc1ccc(C)c(C)c1,,QcrB M342T,,H37Rv,turbidity / fluorescence,fold resistance,,>20
CCN(CC)C(=S)SCCO,,,,H37Rv,BACTEC,MIC,,≥128 µg/mL
NNC(=O)c1ccncc1,,,,H37Rv,resazurin,MIC,,0.0062–0.012 µg/mL
C=CCn1c(-c2cc3ccccc3oc2=O)cs/c1=N\N=C\c1ccc(Cl)cc1,,,,H37Rv,,MIC,,>12.5 µg/mL
CCN(Cc1ccc(CN(CC)C(=O)c2c(-c3ccccc3)noc2C)cc1)C(=O)c1c(-c2ccccc2)noc1C,,,6.25 µg/mL,H37Rv,resazurin,inhibition,,35%
Clc1cc(Cl)cc(-n2cc(CSC3c4ccccc4-c4ccccc43)nn2)c1,,,,H37Rv,broth dilution,MIC99,,118 µM
NNC(=O)c1ccncc1,,,,STR-resistant (ATCC 35820),broth dilution,MIC,,0.03 µg/mL
O=S1(=O)CC(N2CCCCC2)C2=C(O1)c1ccccc1SC2,,,,H37Rv,BACTEC,MIC bound,,>12.5 µg/mL
COc1ccc2c(N/N=C/c3ccc(OC)c4ccccc34)cc(C)nc2c1,,,,H37Rv,,MIC,VERO,1.56 µg/mL
CC(C)N1CN(C(C(=O)NC2C(=O)N3C2SC(C)(C)C3C(=O)O)c2ccccc2)CSC1=S,,,12.5 µg/mL,H37Rv,BACTEC,inhibition,,2%
O=[N+]([O-])c1cccc2c(C3CCCCC3)cc(C3CCCCC3)nc12,,,,H37Rv,,MIC,,1 µg/mL

Repeating the first 9 entries:

structure | setting | changes | dose | strain | read by | endpoint | cells | value
CN(C)CC=C(c1ccc(Br)cc1)c1ccc(-c2ccc(Br)cc2)cc1 |  |  |  | ALI 909 |  | MIC |  | 17 µg/mL
O=S(=O)(Cc1cn(-c2ccc(Cl)cc2Cl)nn1)C1c2ccccc2-c2ccccc21 |  |  |  | Specimen 192 | broth dilution | MIC99 |  | >219 µM
CN(C)C/C=C(\c1ccc(O)cc1)c1ccc(-c2ccccc2)cc1 |  |  |  | H37Rv |  | MIC |  | 6 µg/mL
CCCCCCCCCN1C(=O)c2cc(Cl)nnc2Oc2ccc(Cl)cc21 |  |  |  | H37Rv | BACTEC | EC50 |  | <12.5 µg/mL
ClCC[N+]12CC[N+](CCCl)(CC1)C2.O=S(=O)([O-])[O-] |  |  |  | H37Rv | BACTEC | MIC bound |  | >12.5 µg/mL
CCCCCN1C(=O)c2cc(Cl)nnc2Oc2ccccc21 |  |  | 12.5 µg/mL | H37Rv | BACTEC | inhibition |  | 32%
COc1ccc(N=Nc2c(O)c3cccc([N+](=O)[O-])c3[nH]c2=O)c(C)c1 |  |  |  | H37Rv | resazurin | MIC |  | >6.25 µg/mL
C=CCn1c(-c2cc3ccccc3oc2=O)cs/c1=N\N=C\c1cc(Br)ccc1O |  |  |  | H37Rv |  | EC50 |  | <12.5 µg/mL
CCc1nc2ccccc2n1CCCNc1ccc(C)c(C)c1 |  | WT |  | H37Rv | turbidity / fluorescence | MIC90 |  | 3.1 µM